Measurements: the supplement of paper PMC9931576
Human monoclonal antibodies against the spike receptor-binding domain (heavy:light variable regions). IC50 against pseudoviruses bearing the spike of naturally observed variants; lower = stronger; >10 µg/ml means not reached at the top dose. No active / inactive call. The stated detection limit is 0.0005 µg/ml; values near or below 0.001 µg/ml lie at the floor of the assay.

B1: BD58-0459 (protein)
chain 1: QVQLQESGPGLVKPSQTLSLTCTVSGGSISSVDYYWSWIRQLPGKGLEWIGYIYYTGSTYYNPSLKSRVTISVDTSKNQFSLKLSSVTAADTAVYYCAREVTYYDSWESPPDPWFDPWGQGTLVTVSS
chain 2: QSVLTQPPSVSGAPGQRVTISCTGNSSNIGAGYDVHWYQQLPGTAPKLLIYGNNNRPSGVPDRFSGSKSGTSASLAITGLQAEDEADYYCQSYDSSLKVFGGGTKLTVL
B2: BD58-0466 (protein)
chain 1: QVQLQESGPGLVKPSETLSLTCNVSGGSIISYYWSWIRQPPGKGLEWIGYIYYNGRTHYNPSLKSRVTISVDTSKNHFSLKLSSVTAADTAVYYCARDWGPDYGDAGGMDVWGQGTTVTVSS
chain 2: SYVLTQPPSVSVAPGKTARITCGGNNIGGKSVHWYQQKPGQAPVLVIYYDSDRPSGIPERFSGSNSGNTATLTISRVEAGDEADYYCQVWDGSSDHVVFGGGTKLTVL
B3: BD58-0461 (protein)
chain 1: QVQLVQSGAEVKKPGSSVKVSCKASGGTFSSYAISWVRQAPGQGLEWMGRIIPILGIGNYAQKFQARVTITADISTNTAYMELSSLRSEDTAVYYCARKEELSDYWGQGTLVTVSS
chain 2: SYELTQPPSVSVSPGQTASITCSGDKLGDKYAFWYQQKPGQSPVLVIYQDSERPSGIPERFSGSNSGNTATLTISGTQPMDEADYYCQAWDSSTEVFGGGTKLTVL
B4: BD58-0485 (protein)
chain 1: QVQLVESGGGVVQPGRSLRLSCAASGFNFSSYAMHWVRQAPGKGLEWVAVISYGGTDKYYPDSVKGRFTISRDNSKNTLYLQMNSLGAEDTAVYYCARAIMVRGAIMELEDLELEDYYYYDMDVWGQGTTVTVSS
chain 2: SYELTQPPSVSVSPGQTASITCSGDRLGDKYASWYHQKPGQSPVLVIYQDNKRPSGIPERFSGSNSGNTATLTISGTQAMDEADYYCQTWDSSTVVFGGGTKVTVL
B5: BD58-0449 (protein)
chain 1: QVTLRESGPALVKPTQTLTLTCTFSGFSLSTSGMCVSWIRQPPGKALEWLALIAWDDDKYYNTSLKTRLTISKDTSKNQVVLTMTNMDPVDTATYYCARSDSSRHYYGLDVWGQGTTVTVSS
chain 2: SYELTQPPSVSVSPGQTARITCSADALPNQYAYWYQQKPGQAPVLVIYKDSERPSGIPERFSGSSSGTTVTLTISGVQAEDEADYYCQSTDISPVVFGGGTKLTVL

Target: SARS-CoV-2 Omicron BA.1 spike pseudovirus
Experiment: pseudovirus neutralization IC50; higher = weaker neutralization
Protocol: (§1)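 Single-round VSV luciferase pseudovirus mixed with antibody dilutions for 1 h and put on Huh-7 cells for about a day; IC50 from the dose curve.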

Compared with B1, B2 is higher in “pseudovirus neutralization IC50” value: 0.00434 µg/mL for the first, over 10 µg/mL for the second.

Compared with B3, B4 is 3.7-fold lower in “pseudovirus neutralization IC50” value: 0.0259 µg/mL for the first, 0.00692 µg/mL for the second.

With B5 the “pseudovirus neutralization IC50” value was 0.221 µg/mL.

Target: SARS-CoV-2 Omicron BA.2 spike pseudovirus
Experiment: as above
Protocol: as §1

Compared with B1, B2 is 21-fold higher in “pseudovirus neutralization IC50” value: 0.000581 µg/mL for the first, 0.0121 µg/mL for the second.

Going from B3 to B4, the “pseudovirus neutralization IC50” value falls from 0.0133 µg/mL to 0.00358 µg/mL (3.7-fold).

For B5, the “pseudovirus neutralization IC50” value was 0.0394 µg/mL.

Target: SARS-CoV-2 Omicron BA.2.75 spike pseudovirus
Experiment: as above
Protocol: as §1

First: B1
Second: B2
The “pseudovirus neutralization IC50” value of the first is lower: 0.0023 µg/mL for the first, over 10 µg/mL for the second.

Compared with B3, B4 is 4.3-fold lower in “pseudovirus neutralization IC50” value: 0.0287 µg/mL for the first, 0.00668 µg/mL for the second.

B5 was tested, and the “pseudovirus neutralization IC50” value was 2.75 µg/mL.

Target: SARS-CoV-2 Omicron BA.2.75.2 spike pseudovirus
Experiment: as above
Protocol: as §1

Going from B1 to B2, the “pseudovirus neutralization IC50” value rises from 0.00749 µg/mL to over 10 µg/mL.

B3 and B4 cannot be ordered by “pseudovirus neutralization IC50” value: over 10 µg/mL for the first, over 10 µg/mL for the second.

With B5 the “pseudovirus neutralization IC50” value was over 10 µg/mL.

Target: SARS-CoV-2 Omicron BA.5 spike pseudovirus
Experiment: as above
Protocol: as §1

First: B1
Second: B2
The “pseudovirus neutralization IC50” value of the first is lower: 0.000443 µg/mL for the first, over 10 µg/mL for the second.

B3 and B4 cannot be ordered by “pseudovirus neutralization IC50” value: over 10 µg/mL for the first, over 10 µg/mL for the second.

For B5, the “pseudovirus neutralization IC50” value was 0.00834 µg/mL.

Target: SARS-CoV-2 Omicron BM.1.1.1 spike pseudovirus
Experiment: as above
Protocol: as §1

Compared with B1, B2 is higher in “pseudovirus neutralization IC50” value: 0.000661 µg/mL for the first, over 10 µg/mL for the second.

B3 and B4 cannot be ordered by “pseudovirus neutralization IC50” value: over 10 µg/mL for the first, over 10 µg/mL for the second.

For B5, the “pseudovirus neutralization IC50” value was over 10 µg/mL.

Target: SARS-CoV-2 Omicron BQ.1.1 spike pseudovirus
Experiment: as above
Protocol: as §1

Compared with B1, B2 is higher in “pseudovirus neutralization IC50” value: 0.00231 µg/mL for the first, over 10 µg/mL for the second.

B3 and B4 cannot be ordered by “pseudovirus neutralization IC50” value: over 10 µg/mL for the first, over 10 µg/mL for the second.

In the case of B5, the “pseudovirus neutralization IC50” value is reported as 0.0837 µg/mL.

Target: SARS-CoV-2 Omicron BR.2 spike pseudovirus
Experiment: as above
Protocol: as §1

Compared with B1, B2 is higher in “pseudovirus neutralization IC50” value: 0.000553 µg/mL for the first, over 10 µg/mL for the second.

B3 and B4 cannot be ordered by “pseudovirus neutralization IC50” value: over 10 µg/mL for the first, over 10 µg/mL for the second.

B5 was tested, and the “pseudovirus neutralization IC50” value was over 10 µg/mL.

Target: SARS-CoV-2 Omicron CA.1 spike pseudovirus
Experiment: as above
Protocol: as §1

Going from B1 to B2, the “pseudovirus neutralization IC50” value rises from 0.000783 µg/mL to over 10 µg/mL.

B3 and B4 cannot be ordered by “pseudovirus neutralization IC50” value: over 10 µg/mL for the first, over 10 µg/mL for the second.

In the case of B5, the “pseudovirus neutralization IC50” value is reported as over 10 µg/mL.

Target: SARS-CoV-2 Omicron XBB spike pseudovirus
Experiment: as above
Protocol: as §1

First: B1
Second: B2
The “pseudovirus neutralization IC50” value of the first is lower: 0.00342 µg/mL for the first, over 10 µg/mL for the second.

B3 and B4 cannot be ordered by “pseudovirus neutralization IC50” value: over 10 µg/mL for the first, over 10 µg/mL for the second.

In the case of B5, the “pseudovirus neutralization IC50” value is reported as over 10 µg/mL.

Target: SARS-CoV-2 early D614G spike pseudovirus
Experiment: as above
Protocol: as §1

B1 and B2 cannot be ordered by “pseudovirus neutralization IC50” value: over 10 µg/mL for the first, over 10 µg/mL for the second.

B3 and B4 cannot be ordered by “pseudovirus neutralization IC50” value: over 10 µg/mL for the first, over 10 µg/mL for the second.

For B5, the “pseudovirus neutralization IC50” value was over 10 µg/mL.
